# Test results taken from patent publication US20190060284A1, “PHARMACOLOGICAL MODULATORS OF NAV1.1 VOLTAGE-GATED SODIUM CHANNELS ASSOCIATED WITH MECHANICAL PAIN” (priority 2016, published 2019).
# What was measured:
# injected paw = details: intraplantar Hm1a
# ATF3 = format: in vivo, mouse; details: after toxin injection
# Source text: Affymetrix was commissioned to design a Type 1 probe set to mouse Nav1.1 (Scn1a, NM_018733.2) and Type 6 probe sets to mouse TRPV1 (TrpV1, NM_001001445.2), mouse Nav1.7 (Scn9a, NM_001290674.1), mouse 5HT3 (Htr3a, NM_001099644.1), and mouse TRPM8 (Trpm8, NM_134252.3) coding regions. We used the following primary antibodies: mouse anti-NF200 (1:10,000, Sigma), rabbit anti-CGRP (1:10,000, Peninsula Labs), and rabbit anti-TH (1:5,000, AbCam). We used fluorophore-conjugated secondary antibodies raised in goat against mouse or rabbit, as appropriate (1:1,000, Alexa Fluor 488, Life Technologies). To identify IB4-binding cells, biotinylated IB4 (1:1,000, Vector Labs) and fluorophore-conjugated streptavidin (1:1,000, Alexa Fluor 488, Life Technologies) were used in place of primary and secondary antibodies. Fos staining was performed 90 minutes after hindpaw injection of Hm1a or PBS. Spinal cord sections were prepared from lumbar L4/L5 and stained with rabbit anti-Fos (1:5,000, CalBiochem). ATF3 antibody (Santa Cruz Biotechnology) was used at 1:2000.
smiles,measurement,setting,value
"CC(C)C[C@@H]1NC(=O)[C@H](Cc2ccc(O)cc2)NC(=O)[C@H](CCCNC(=N)N)NC(=O)[C@@H](NC(=O)[C@@H](N)CCC(=O)O)CSSC[C@@H]2NC(=O)[C@@H]3CSSC[C@@H](C(=O)N[C@@H](C)C(=O)N[C@@H](Cc4c[nH]c5ccccc45)C(=O)N[C@@H](CC(=O)O)C(=O)NCC(=O)N[C@H](C(=O)N[C@@H](Cc4ccccc4)C(=O)N[C@@H](CO)C(=O)O)[C@@H](C)O)NC(=O)[C@H](Cc4ccc(O)cc4)NC(=O)[C@H](CCCCN)NC(=O)[C@H](Cc4c[nH]c5ccccc45)NC(=O)[C@H](CC(=O)O)NC(=O)[C@H](CO)NC(=O)[C@H](CCCNC(=N)N)NC(=O)[C@H](CSSC[C@H](NC(=O)CNC(=O)CNC(=O)[C@H](Cc4ccccc4)NC1=O)C(=O)N[C@@H](CO)C(=O)N[C@@H](CO)C(=O)N[C@@H]([C@@H](C)O)C(=O)N[C@@H](CO)C(=O)N[C@@H](CC(=O)O)C(=O)N3)NC(=O)[C@H](CO)NC(=O)[C@H](CC(C)C)NC(=O)[C@H](Cc1c[nH]cn1)NC(=O)[C@H](CCCCN)NC2=O [Hm1a, δ-theraphotoxin-Hm1a]",swelling of the injected paw,injected paw,does not produce
same,plasma extravasation of the injected paw,injected paw; Evans blue dye,does not produce
same,expression of ATF3,ATF3,fails to induce expression of ATF3
